Data taken from article PMC8539749 (Viruses, 2021).

Test system: Huh-7 cells
Experiment: Cytotoxicity, Cell-Titer-Glo luminescent assay
Conditions: CellTiter-Glo

With N=C(N)NCCC[C@@H]1NC(=O)[C@@H](NC(=O)[C@@H](N)CCCCN)CCCCNC(=O)[C@H](CO)NC(=O)CNC(=O)[C@H](Cc2ccccc2)NC(=O)CNC1=O [HKU-P1] as the compound, how does the “cytotoxicity (in words)” value (1000 μg/mL) read?
Its value is “negligible cytotoxicity”.

And the CC50 (higher concentration impracticable to test (stock 10 mg/mL))?
Its CC50 is “above 1000 μg/mL”.
